This is an account of results in publication PMC5986058, “Bioinformatic analysis of the fold type I PLP‐dependent enzymes reveals determinants of reaction specificity in L‐threonine aldolase from Aeromonas jandaei” (FEBS Open Bio, 2018).

In this data set the test system is C[C@H](O)[C@H](N)C(=O)O. Kind of data set: purified protein. As to conditions: 50 mM NaPi pH 8, 25 °C, 50 μM PLP.

One may read the Km as the concentration of substrate that gives half-maximal velocity. A word on the kcat: it is the number of substrate molecules converted per active site and unit of time at saturation. Usually kcat/Km stands for the turnover number divided by the Michaelis constant.

For the substance “LTAaj (L-threonine aldolase from Aeromonas jandaei; L-allo-threonine aldolase) (Aeromonas jandaei; S198H)”, the Km was 5.7 mM, the turnover number (kcat) is 5.1 s⁻¹ and the kcat/Km was found to be 900 M⁻¹ s⁻¹.
For “LTAaj (L-threonine aldolase from Aeromonas jandaei; L-allo-threonine aldolase) (Aeromonas jandaei; R313H)” the same measures were 28 mM, 2.3 s⁻¹ and 80 M⁻¹ s⁻¹.
As to “LTAaj (L-threonine aldolase from Aeromonas jandaei; L-allo-threonine aldolase) (Aeromonas jandaei; R171F)”, the Km was 18 mM, the kcat came out at 0.23 s⁻¹ and the kcat/Km was 10 M⁻¹ s⁻¹.
For “LTAaj (L-threonine aldolase from Aeromonas jandaei; L-allo-threonine aldolase) (Aeromonas jandaei; E138A)” the same measures were 2.3 mM, 3.9 s⁻¹ and 1700 M⁻¹ s⁻¹.
For “LTAaj (L-threonine aldolase from Aeromonas jandaei; L-allo-threonine aldolase) (Aeromonas jandaei; G200S)” the same measures were 0.2 mM, 13.6 s⁻¹ and 61000 M⁻¹ s⁻¹.
For “LTAaj (L-threonine aldolase from Aeromonas jandaei; L-allo-threonine aldolase) (Aeromonas jandaei; C196T)” the same measures were 0.5 mM, 13.3 s⁻¹ and 26000 M⁻¹ s⁻¹.
With “LTAaj (L-threonine aldolase from Aeromonas jandaei; L-allo-threonine aldolase) (Aeromonas jandaei; H85F)”, the Km was found to be 11.5 mM, the kcat was determined as 0.05 s⁻¹ and the kcat/Km was found to be 4.5 M⁻¹ s⁻¹.
With “LTAaj (L-threonine aldolase from Aeromonas jandaei; L-allo-threonine aldolase) (Aeromonas jandaei; R171Q)”, the Michaelis-Menten constant (Km) stood at 69 mM, the kcat turned out to be 0.47 s⁻¹ and the specificity constant (kcat/Km) was 6.8 M⁻¹ s⁻¹.
With “LTAaj (L-threonine aldolase from Aeromonas jandaei; L-allo-threonine aldolase) (Aeromonas jandaei; H85Y)”, the Michaelis-Menten constant (Km) is listed as 14.8 mM, the kcat worked out at 0.01 s⁻¹ and the specificity constant (kcat/Km) was 0.7 M⁻¹ s⁻¹.
Take “LTAaj (L-threonine aldolase from Aeromonas jandaei; L-allo-threonine aldolase) (Aeromonas jandaei; R231A)”: the Km is on record as 7.5 mM, the kcat was determined as 0.7 s⁻¹ and the specificity constant (kcat/Km) is 90 M⁻¹ s⁻¹.
